Consider one sequence from publication PMC8487509.

For this data set, the target named is T1, LsrR (Escherichia coli DCM5 (mammary pathogenic)) (UniProt Q8XAY6).
T1 sequence: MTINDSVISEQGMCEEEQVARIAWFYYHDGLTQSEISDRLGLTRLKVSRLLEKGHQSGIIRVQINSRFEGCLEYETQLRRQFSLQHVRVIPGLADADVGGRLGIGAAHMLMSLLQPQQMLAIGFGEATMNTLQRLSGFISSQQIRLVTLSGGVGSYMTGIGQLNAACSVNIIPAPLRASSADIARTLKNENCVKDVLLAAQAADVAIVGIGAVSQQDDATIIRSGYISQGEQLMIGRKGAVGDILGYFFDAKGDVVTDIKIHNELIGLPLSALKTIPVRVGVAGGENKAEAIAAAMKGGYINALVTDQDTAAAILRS
Description: EMSA. As to conditions: positive control, 100 fmol probe, 5x binding buffer (4 µL) […], recombinant protein, residues 1-317, protein details: C-terminal His6 (pET28a), label: biotin (forward primer 5' end implied), probe letters rebuilt from the primers and the genome. Background: Mobility shift assays separate free from complexed probe on a gel.

For at least one entry, the source does not settle the construct or the ends of the probe.

Take “ATTTCCCCCGTTCAGTTTTGCAGGTGAGTTTTGAACAAATGTATTTCTGCTTTTAATTTGTTCATAACCTTAGGTGGACATTGCACATATTTCCGACGAATAGATCACAATTTATGCTATTTTGATTTTCACGGTTGCGTTTGTTCATACTCGTAGAGTCAAACTGTGGTTGCCATCACAGATATAAATGCGCAAGAACTGAACAATTGCATTAAAGATTTAAATATGTTCAAAGTGAAGAATGAATT (double strand) [p-lsrR]”: the binding result is “binds”.
